Compound potency records, mixed from different reports. Data source: NIAID ChemDB in PubChem.

Common to all: whole-cell or culture tests; agent: Candida albicans; read-out: MIC100

Lines come from different laboratories, so protocols vary. MIC50, MIC90 and the like: level of inhibition, or share of isolates inhibited.

compound | strain | value
CC(=O)Nc1ccc(OCC(=O)N2N=C(c3nc4ccccc4[nH]3)CC2c2ccc(Br)cc2)cc1 | MTCC 227 | 100 µg/mL
Brc1ccc(-c2n[nH]c(COc3ncnc4ccccc34)n2)cc1 | MTCC 227 | 25 µg/mL
O=c1ccc2c(ccc3nc(N4CCN(C(c5ccccc5)c5ccc(Cl)cc5)CC4)sc32)o1 | MTCC 183 | 62.5 µg/mL
CC(=O)Nc1ccc(OCC(=O)N2N=C(c3nc4ccccc4[nH]3)CC2c2cccc([N+](=O)[O-])c2)cc1 | MTCC 227 | 250 µg/mL
COc1ccc(-c2n[nH]c(COc3nc(C(F)(F)F)nc4ccccc34)n2)cc1OC | MTCC 227 | 6.25 µg/mL
Cc1ccc(-c2nc3ccccc3c(=O)n2-c2ccc(C(=O)NN3C(=O)/C(=C/c4cccc([N+](=O)[O-])c4)SC3c3ccc(F)cc3)cc2)cc1 | MTCC 227 | 250 µg/mL
CC(=O)Nc1ccc(OCC(=O)N2N=C(c3nc4ccccc4[nH]3)CC2c2ccc(O)cc2)cc1 | MTCC 227 | 500 µg/mL
CN1CCN(c2nc3ccc4c(ccc(=O)n4C)c3s2)CC1 | MTCC 183 | 100 µg/mL
Cc1ccc(-c2nc3ccccc3c(=O)n2-c2ccc(C(=O)N/N=C\c3ccc(F)cc3)cc2)cc1 | MTCC 227 | 250 µg/mL
Fc1ccc(-c2n[nH]c(COc3ncnc4ccccc34)n2)cc1 | MTCC 227 | 6.25 µg/mL
Cc1ccc(-c2nc3ccccc3c(=O)n2-c2ccc(C(=O)NN3C(=O)/C(=C/c4cccc(Br)c4)SC3c3ccc(F)cc3)cc2)cc1 | MTCC 227 | 1000 µg/mL
COc1cc(-c2n[nH]c(COc3ncnc4ccccc34)n2)cc(OC)c1OC | MTCC 227 | 6.25 µg/mL
COc1cccc(C2CC(c3nc4ccccc4[nH]3)=NN2C(=O)COc2ccc(NC(C)=O)cc2)c1 | MTCC 227 | 1000 µg/mL
c1csc(-c2n[nH]c(COc3ncnc4ccccc34)n2)c1 | MTCC 227 | 6.25 µg/mL
O=c1ccc2c(ccc3nc(N4CCN(C(c5ccccc5)c5ccccc5)CC4)sc32)o1 | MTCC 183 | 200 µg/mL
CC(=O)Nc1ccc(OCC(=O)N2N=C(c3nc4ccccc4[nH]3)CC2c2cccc(O)c2)cc1 | MTCC 227 | 1000 µg/mL
COc1ccc(/C=C2\SC(c3ccc(F)cc3)N(NC(=O)c3ccc(-n4c(-c5ccc(C)cc5)nc5ccccc5c4=O)cc3)C2=O)c(O)c1 | MTCC 227 | 1000 µg/mL
Cn1c(=O)ccc2c3sc(N4CCN(C(c5ccccc5)c5ccc(Cl)cc5)CC4)nc3ccc21 | MTCC 183 | 200 µg/mL
Cc1nc(OCc2nc(-c3cccs3)n[nH]2)c2ccccc2n1 | MTCC 227 | 6.25 µg/mL

A second listing of 2 rows from above:

compound	strain	value
COc1cc(-c2n[nH]c(COc3ncnc4ccccc34)n2)cc(OC)c1OC	MTCC 227	6.25 µg/mL
Cc1ccc(-c2nc3ccccc3c(=O)n2-c2ccc(C(=O)NN3C(=O)/C(=C/c4cccc(Br)c4)SC3c3ccc(F)cc3)cc2)cc1	MTCC 227	1000 µg/mL